Compound potency records, mixed from different reports. Data source: NIAID ChemDB in PubChem.

Shared fields: whole-cell or culture tests; species: Candida albicans; endpoint: MIC80

A number after MIC or MFC names an inhibition level or a share of isolates.

SMILES | conditions | read by | changes | strain or isolate | value
Oc1cccc2ccc(/C=C/c3cccc(Cl)c3)nc12 | - | - | - | - | 15.63 µg/mL
Oc1ccc2cc1Oc1ccc(cc1)CCc1cccc(c1)Oc1c(O)cccc1CC2 | - | broth dilution | - | BWP17-DPP3-GFP | >64 µg/mL
O=C(Cc1ccc(O)cc1)NCCc1ccc2c(c1)OCO2 | - | broth dilution | Fluconazole-resistant | Clinical isolate | >64 µg/mL
CCCCCCOc1ccc(N=C(N)N)cc1 | - | - | - | ATCC 44859 | 125 µM
COc1cc(CCc2cc(OC)c(OC)c(OC)c2)cc(OC)c1OC | - | broth dilution | - | BWP17-DPP3-GFP | 64 µg/mL
Oc1cccc(N=Cc2ccc3cccc(O)c3n2)c1 | - | - | - | - | 31.25 µg/mL
Oc1ccc2c(c1)CCc1ccc(O)c(c1)Oc1ccc(cc1)CCc1ccc-2c(O)c1 | - | broth dilution | - | BWP17-DPP3-GFP | >64 µg/mL
C[C@H](c1ncncc1F)[C@](O)(Cn1cncn1)c1ccc(F)cc1F | clinical isolate | broth dilution | - | - | 0.18 µM
CCCCCCCCCCSc1ccc(N=C(N)N)cc1 | - | - | - | ATCC 44859 | 15.83 µM
Oc1ccc(N=Nc2c(Cl)cccc2Cl)c2cccnc12 | - | - | - | - | 125 µg/mL
Oc1ccc2cc1Oc1ccc(cc1)CCc1cccc(O)c1-c1c(O)cccc1CC2 | - | broth dilution | - | BWP17-DPP3-GFP | >64 µg/mL
CC(C)(C)c1ccc(C[N+]2=Cc3cc4c(cc3CC2)OCO4)cc1.[Br-] | - | broth dilution | Fluconazole-resistant | Clinical isolate | >64 µg/mL
COc1ccc2cc3[n+](cc2c1OC)CCc1cc2c(cc1-3)OCO2.[Cl-] | - | broth dilution | Fluconazole-resistant | Clinical isolate | 32 µg/mL
O=C(NCCc1ccc2c(c1)OCO2)Nc1ccccc1Cl | - | broth dilution | Fluconazole-resistant | Clinical isolate | >64 µg/mL
CCCCCCCCCCCCCCCCSc1ccc(N=C(N)N)cc1 | - | - | - | ATCC 44859 | 125 µM
C[C@H](Cc1ccc(O)c(O)c1)[C@@H](C)Cc1ccc(O)c(O)c1 | - | broth dilution | - | CCC 129-2000 | 250 µg/mL
Brc1ccc(C[N+]2=C(c3ccco3)c3cc4c(cc3CC2)OCO4)cc1.[Br-] | - | broth dilution | Fluconazole-resistant | Clinical isolate | >64 µg/mL
CCCSc1ccc(N=C(N)N)cc1 | - | - | - | ATCC 44859 | >1000 µM
Oc1cc2cc(c1O)Oc1ccc(cc1)CCc1cccc(O)c1Oc1cccc(c1)CC2 | - | broth dilution | - | BWP17-DPP3-GFP | >64 µg/mL
Brc1ccc(C[N+]2(Cc3ccc(Br)cc3)CCc3cc4c(cc3C2)OCO4)cc1.[Br-] | - | broth dilution | Fluconazole-resistant | Clinical isolate | >64 µg/mL
CCCCCCCCCCCCCSc1ccc(N=C(N)N)cc1 | - | - | - | ATCC 44859 | 31.25 µM

Repeating the final 2 entries:

{"SMILES": "Brc1ccc(C[N+]2(Cc3ccc(Br)cc3)CCc3cc4c(cc3C2)OCO4)cc1.[Br-]", "read by": "broth dilution", "changes": "Fluconazole-resistant", "strain or isolate": "Clinical isolate", "value": ">64 µg/mL"}
{"SMILES": "CCCCCCCCCCCCCSc1ccc(N=C(N)N)cc1", "strain or isolate": "ATCC 44859", "value": "31.25 µM"}

An empty or dashed field is not shown. Conditions beyond the fields shown may differ between rows.